In experiment [1] the test system is human epidermoid cells, virally infected with HSV-2. The conditions noted are these: for Trichothecene in Vitro Concentration, Toxic Lo / Trichothecene in Vitro Concentration, Cytotoxic Max: dose guideline; for Trichothecene in Vitro Concentration, Cytotoxic Min: dose guideline from viral protein synthesis inhibiting model; for Trichothecene in Vitro Concentration, Cytotoxic Max: highest concentration without reduction in cell viability.

Experiment [2] has the same test system. Conditions: cited from earlier work; for inhibition of hyperactive protein synthesis: by ~5 ng/ml, HSV-2 infected human epidermoid cells.

Roridin A: in experiment [1], the “Trichothecene in Vitro Concentration, Toxic Lo” value stood at 11 ng/mL; the “Trichothecene in Vitro Concentration, Cytotoxic Min” value was 6 ng/mL; the “Trichothecene in Vitro Concentration, Cytotoxic Max” value is 10 ng/mL. In experiment [2], the “inhibition of hyperactive protein synthesis” value is listed as 100%; the “Trichothecene in Vitro Concentration, Inhibitory 50%” value was 1.4 ng/mL; the “Trichothecene in Vitro Concentration, Inhibitory 80%” value is 2.0 ng/mL; the “Trichothecene in Vitro Concentration, Inhibitory 90%” value was 3.3 ng/mL. Moreover, the “Trichothecene in Vitro Concentration, Inhibitory 99%” value in experiment [2] was 5.0 ng/mL.

Regarding Satratoxin G, in experiment [1], the “Trichothecene in Vitro Concentration, Toxic Lo” value was 11 ng/mL; the “Trichothecene in Vitro Concentration, Cytotoxic Min” value amounted to 6 ng/mL; the “Trichothecene in Vitro Concentration, Cytotoxic Max” value was 10 ng/mL. Besides, in experiment [2], the “inhibition of hyperactive protein synthesis” value was 100%; the “Trichothecene in Vitro Concentration, Inhibitory 50%” value is 1.5 ng/mL; the “Trichothecene in Vitro Concentration, Inhibitory 80%” value was 2.4 ng/mL; the “Trichothecene in Vitro Concentration, Inhibitory 90%” value was 3.9 ng/mL. In addition, the “Trichothecene in Vitro Concentration, Inhibitory 99%” value in experiment [2] was 5.0 ng/mL.

The record behind these values is patent publication US7015244B1 (priority 1998, dated 2006).
